Values after ≈ are worked out from the molar mass of the structure shown.
Test system: Vaccinia virus
Test: The minimum inhibitory concentration required for 50% inhibition of vaccinia virus induced cytopathogenic effect in L929 cells

| Structure (SMILES) | MIC50 |
| --- | --- |
| [N-]=[N+]=N[C@H]1C(n2cnc3c(N)nc(F)nc32)O[C@H](CO)[C@@H]1O (stereo not given in full) | 14 µg/mL (≈ 45.1 µM) |
| [N-]=[N+]=N[C@H]1C(n2cnc3c(N)nc(Cl)nc32)O[C@H](CO)[C@@H]1O (stereo not given in full) | 187 µg/mL (≈ 572 µM) |
| Nc1nc(Cl)nc2c1ncn2C1O[C@H](CO)[C@H](O)[C@H]1Cl (stereo not given in full) | 83 µg/mL (≈ 259 µM) |
| Nc1nc(F)nc2c1ncn2C1O[C@H](CO)[C@H](O)[C@H]1N (stereo not given in full) | 68 µg/mL (≈ 239 µM) |
| Nc1nc(F)nc2c1ncn2C1O[C@H](CO)[C@H](O)[C@H]1Cl (stereo not given in full) | 75 µg/mL (≈ 247 µM) |
